Here are results for 1 compound from patent publication US9770500B2 (priority 2011, dated 2017).

By UniProt entry, the sequences of proteins in these tests, tags left out.
UniProt P16154, whole entry, looked up: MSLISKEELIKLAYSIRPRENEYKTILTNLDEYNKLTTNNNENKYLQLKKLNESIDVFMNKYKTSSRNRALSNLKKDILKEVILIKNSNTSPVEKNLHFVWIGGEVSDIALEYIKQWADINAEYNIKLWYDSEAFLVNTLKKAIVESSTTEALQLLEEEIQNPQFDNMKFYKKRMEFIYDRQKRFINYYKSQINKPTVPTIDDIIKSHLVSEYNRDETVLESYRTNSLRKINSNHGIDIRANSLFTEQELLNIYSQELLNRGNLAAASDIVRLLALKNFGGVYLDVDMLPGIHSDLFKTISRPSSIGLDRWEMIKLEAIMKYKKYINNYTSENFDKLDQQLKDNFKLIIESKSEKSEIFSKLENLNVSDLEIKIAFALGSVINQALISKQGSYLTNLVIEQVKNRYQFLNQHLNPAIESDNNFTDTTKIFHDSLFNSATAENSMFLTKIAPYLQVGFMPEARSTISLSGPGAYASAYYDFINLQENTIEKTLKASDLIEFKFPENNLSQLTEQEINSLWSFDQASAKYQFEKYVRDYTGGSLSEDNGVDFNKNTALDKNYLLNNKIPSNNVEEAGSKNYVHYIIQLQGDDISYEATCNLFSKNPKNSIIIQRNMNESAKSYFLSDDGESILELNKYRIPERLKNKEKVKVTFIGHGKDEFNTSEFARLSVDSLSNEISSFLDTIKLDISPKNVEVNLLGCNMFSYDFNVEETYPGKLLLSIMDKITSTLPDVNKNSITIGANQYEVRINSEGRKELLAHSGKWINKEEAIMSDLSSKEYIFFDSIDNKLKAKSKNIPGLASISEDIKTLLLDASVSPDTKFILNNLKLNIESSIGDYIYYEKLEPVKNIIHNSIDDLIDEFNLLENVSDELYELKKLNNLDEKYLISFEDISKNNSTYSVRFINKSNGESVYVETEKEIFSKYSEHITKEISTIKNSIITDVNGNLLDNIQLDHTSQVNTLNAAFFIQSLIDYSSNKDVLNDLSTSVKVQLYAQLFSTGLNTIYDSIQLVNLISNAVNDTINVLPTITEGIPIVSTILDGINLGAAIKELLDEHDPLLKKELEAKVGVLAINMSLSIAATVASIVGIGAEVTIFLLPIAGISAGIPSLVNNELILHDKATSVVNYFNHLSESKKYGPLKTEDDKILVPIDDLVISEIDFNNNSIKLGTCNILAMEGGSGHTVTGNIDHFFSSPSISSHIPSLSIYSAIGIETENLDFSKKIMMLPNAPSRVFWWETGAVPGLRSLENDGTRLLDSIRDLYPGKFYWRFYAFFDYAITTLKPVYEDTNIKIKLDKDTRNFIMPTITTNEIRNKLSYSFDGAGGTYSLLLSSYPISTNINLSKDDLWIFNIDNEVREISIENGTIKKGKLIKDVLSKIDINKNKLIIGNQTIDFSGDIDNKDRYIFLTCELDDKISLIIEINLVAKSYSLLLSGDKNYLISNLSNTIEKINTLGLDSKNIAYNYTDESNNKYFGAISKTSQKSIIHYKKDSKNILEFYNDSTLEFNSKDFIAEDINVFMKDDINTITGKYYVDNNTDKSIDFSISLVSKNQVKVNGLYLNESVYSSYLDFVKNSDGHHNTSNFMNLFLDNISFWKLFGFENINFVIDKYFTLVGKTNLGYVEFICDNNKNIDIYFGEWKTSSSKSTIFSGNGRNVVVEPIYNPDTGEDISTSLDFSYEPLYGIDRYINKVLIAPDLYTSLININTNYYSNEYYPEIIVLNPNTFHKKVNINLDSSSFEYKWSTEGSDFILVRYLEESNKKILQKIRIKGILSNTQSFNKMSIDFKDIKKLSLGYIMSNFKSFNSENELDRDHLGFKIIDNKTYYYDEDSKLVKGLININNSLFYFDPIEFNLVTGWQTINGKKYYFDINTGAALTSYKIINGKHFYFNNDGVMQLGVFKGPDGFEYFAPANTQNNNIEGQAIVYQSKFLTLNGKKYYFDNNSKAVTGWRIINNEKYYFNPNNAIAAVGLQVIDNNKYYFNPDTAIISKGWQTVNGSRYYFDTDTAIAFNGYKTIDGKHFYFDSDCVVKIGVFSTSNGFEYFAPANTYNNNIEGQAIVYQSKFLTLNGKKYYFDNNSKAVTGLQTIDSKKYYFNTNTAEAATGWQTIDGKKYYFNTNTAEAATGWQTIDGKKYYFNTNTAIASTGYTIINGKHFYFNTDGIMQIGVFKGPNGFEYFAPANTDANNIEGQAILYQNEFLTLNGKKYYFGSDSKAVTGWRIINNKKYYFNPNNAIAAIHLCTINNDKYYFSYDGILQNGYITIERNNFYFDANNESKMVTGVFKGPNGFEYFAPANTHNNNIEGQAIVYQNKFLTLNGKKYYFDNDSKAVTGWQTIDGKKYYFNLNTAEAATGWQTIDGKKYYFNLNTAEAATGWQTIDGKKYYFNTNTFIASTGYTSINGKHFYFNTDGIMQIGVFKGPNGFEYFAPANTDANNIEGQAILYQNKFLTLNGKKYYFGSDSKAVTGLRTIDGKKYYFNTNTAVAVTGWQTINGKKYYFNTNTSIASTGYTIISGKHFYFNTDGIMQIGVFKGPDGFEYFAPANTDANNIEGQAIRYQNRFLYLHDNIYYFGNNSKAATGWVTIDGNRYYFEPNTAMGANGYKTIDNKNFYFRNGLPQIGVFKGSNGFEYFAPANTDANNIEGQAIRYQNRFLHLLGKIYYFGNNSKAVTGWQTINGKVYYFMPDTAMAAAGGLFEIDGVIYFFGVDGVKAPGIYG

This assay concerns the target C. difficile TcdA holotoxin (Clostridioides difficile, UniProt P16154). Description: [3H] inositol hexakisphosphate binding assay. Details: species or system Clostridium difficile. Conditions: read-out: equilibrium binding affinity constant (Kd); 3H-InsP6 binding to purified TcdA holotoxin.

What is called Kd is the concentration at which binding is half-saturated. As for `O=P(O)(O)OC1C(OP(=O)(O)O)C(OP(=O)(O)O)C(OP(=O)(O)O)C(OP(=O)(O)O)C1OP(=O)(O)O` (stereo not shown) [InsP6, inositol hexakisphosphate], the Kd is 0.0626 µM.
